In ChEMBL document CHEMBL5096213 (Bioorg Med Chem, 2022):

System: Mycobacterium tuberculosis
Test: Binding affinity to Mycobacterium tuberculosis PanD assessed as change in enthalpy by isothermal titration calorimetry

Compared with `O=C(O)c1nccnc1Nc1ccccc1`, `CCCNc1nccnc1C(=O)O` is higher in deltaH: -2.8 kcal/mol for the first, -1.3 kcal/mol for the second.

Going from `Nc1cnc(C(=O)O)cn1` to `O=C(O)c1cnccn1` [PYRAZINOIC ACID], the deltaH falls from -6.6 kcal/mol to -10 kcal/mol.

Compound `Nc1nccnc1C(=O)O` has a deltaH of -5.3 kcal/mol.
